Measured values from several laboratories, pooled; numbers as filed in NIAID ChemDB.

Shared fields: enzyme or target tests; species: HIV-1; target: Protease; read-out: inhibition

Conditions beyond the fields shown may differ between rows. Inhibition is in % at the dose shown (toxicity tests: loss of growth or viability).

{"smiles": "CC(C)C[C@H](NC(=O)[C@@H](N)[C@@H](C)O)C(=O)N[C@@H](CC(N)=O)C(=O)N[C@@H](Cc1ccccc1)C(N)=O", "method": "HPLC", "dose": "800 µg/mL", "value": "16%"}
{"smiles": "CC[C@H](C)[C@H](NC(=O)[C@@H]1CCCN1C(=O)[C@H](O)[C@H](Cc1ccccc1)NC(=O)[C@H](CC(N)=O)NC(=O)CCc1ccccc1)C(=O)N[C@H](C(N)=O)C(C)C", "dose": "1000 µM", "value": "98.5%"}
{"smiles": "CC(C)C[C@H](NC(=O)[C@H](CC(N)=O)NC(=O)CCCCCCCCCCCCCCC(=O)N[C@@H](CC(N)=O)C(=O)N[C@@H](Cc1ccccc1)C(=O)O)C(=O)N[C@@H](Cc1ccccc1)C(N)=O", "dose": "5.5 µM", "value": "30%"}
{"smiles": "CC(C)(C)OC(=O)N[C@H]1CCCCNC(=O)CC(=O)NCCCC[C@@H](C(N)=O)NC(=O)[C@H](Cc2ccccc2)NC(=O)CC(Cc2ccccc2)NC1=O", "dose": "10 µM", "value": "2%"}
{"smiles": "CC(C)CC(=O)N[C@H](C(=O)N[C@H](C(=O)N[C@H]([C@@H](O)CC(=O)N[C@@H](C)C(=O)N[C@H]([C@@H](O)CC(=O)O)C(F)(F)F)C(F)(F)F)C(C)C)C(C)C", "method": "fluorescence", "dose": "150 µM", "value": "0%"}
{"smiles": "O=c1cc(-c2ccc(O)cc2)oc2cc(O)c(O)c(O)c12", "method": "substrate cleavage / fluorescence", "dose": "1000 µg/mL", "value": "100%"}
{"smiles": "CC(C)COC(=O)[C@H](Cc1ccccc1)NC(=O)N[C@@H](Cc1ccccc1)C(=O)OCC(C)C", "method": "absorbance", "dose": "10 µM", "value": "<10%"}
{"smiles": "CC[C@H](C)[C@H](NC(=O)CN(O)C(=O)[C@H](Cc1ccccc1)NC(=O)OC(C)(C)C)C(=O)N[C@@H](Cc1ccccc1)C(=O)O", "dose": "10 µM", "value": "25%"}
{"smiles": "CC(C)(C)OC(=O)N[C@@H](Cc1ccccc1)C(=O)N[C@@H](CC(N)=O)C(=O)N[C@@H](Cc1ccccc1)[C@H](O)C(=O)NCC1CCCCC1", "dose": "1000 µM", "value": "79.7%"}
{"smiles": "CN1CCN(C(=O)[C@@H]2O[C@@H]3CN(Cc4ccccc4)C(=O)[C@H]2O3)CC1", "method": "FRET", "dose": "10 µM", "value": "82%"}
{"smiles": "COc1ccc(C2C3(CO)C4N(C(=O)OC(C)(C)C)C5C2(CO)C2N(C(=O)OC(C)(C)C)C3C4(CO)C(c3ccc(OC)cc3)C52CO)cc1", "dose": "50 µM", "value": "32%"}
{"smiles": "COc1ccc(/C=C/C(=O)C2=C(O)/C(=C/c3ccc(OC)c(OC)c3)CCC2)cc1OC", "method": "fluorescence", "dose": "10 µM", "value": "61.6%"}
{"smiles": "COC(=O)[C@H](CC(C)C)N1C[C@@H]2O[C@H](C1=O)[C@H](C(=O)N1CCCCC1)O2", "method": "FRET", "dose": "10 µM", "value": "0%"}
{"smiles": "CC(C)COC(=O)[C@H](Cc1ccccc1)NC(=O)[C@@H](O)[C@H](O)C(=O)N[C@@H](Cc1ccccc1)C(=O)OCC(C)C", "method": "absorbance", "dose": "10 µM", "value": "<10%"}
{"smiles": "C[C@@H]1CC[C@]2(C(=O)O[C@@H]3O[C@H](CO)[C@@H](O)[C@H](O)[C@H]3O)CC[C@]3(C)C(=CC[C@@H]4[C@@]5(C)C[C@@H](O)[C@H](O)C(C)(C)[C@@H]5CC[C@]43C)[C@@H]2[C@]1(C)O", "method": "HPLC", "dose": "100 µM", "value": "52.9%"}
{"smiles": "CC(C)COC(=O)[C@H](Cc1ccccc1)NC(=O)CC(=O)N[C@@H](Cc1ccccc1)C(=O)OCC(C)C", "method": "absorbance", "dose": "10 µM", "value": "41%"}
{"smiles": "CC(C)C[C@H](NC(=O)[C@@H]1CCCN1C(=O)CCCCCCCCCCCCCCC(=O)N[C@@H](CC(N)=O)C(=O)N[C@@H](Cc1ccccc1)C(=O)O)C(=O)N[C@@H](Cc1ccccc1)C(N)=O", "dose": "5.5 µM", "value": "50%"}
{"smiles": "CC(C)(C)C(=O)OC[C@@H]1[C@@H](O)[C@H](OC(=O)C(C)(C)C)[C@H](O)C[NH+]1Cc1ccccc1", "dose": "100 µM", "value": "8%"}
{"smiles": "CC(C)(C)NC(=O)[C@@H]1CCCN1C(=O)[C@H](O)[C@H](Cc1ccccc1)NC(=O)[C@H](CC(N)=O)NC(=O)OCc1ccccc1", "dose": "5 µM", "value": "4.9%"}
{"smiles": "COC(=O)[C@H](CC(C)C)N1C[C@@H]2O[C@H](C1=O)[C@H](C(=O)N1CCOCC1)O2", "method": "FRET", "dose": "10 µM", "value": "0%"}
{"smiles": "CC(C)C[C@@H](CC[C@@H](Cc1ccccc1)C(=O)N[C@H](C(=O)N[C@H](C(N)=O)C(C)C)C(C)C)NC(=O)[C@@H](NC(=O)[C@@H](NC(=O)OC(C)(C)C)C(C)C)C(C)C", "dose": "10 µM", "value": "29%"}
{"smiles": "CC(=O)NC(C(=O)NC[C@H]1O[C@@H](Oc2ccccc2)[C@H](O)[C@@H](OCc2ccccc2)[C@@H]1OCC(C)C)C(C)C", "dose": "100 µM", "value": "16%"}
{"smiles": "CC(C)(C)NC(=O)[C@H]1N(C(=O)[C@@H](O)[C@H](Cc2ccccc2)NC(=O)[C@H](CC(N)=O)NC(=O)COc2cccc3c2CCCC3)CSC1(C)C", "dose": "0.05 µM", "value": "97.9%"}
{"smiles": "CCc1c(C)c2c(c(C)c1C1=NC(=O)C(c3cc(-c4c(C)c5c(c(C)c4CC)[C@](C)(O)C[C@@H]5C)[nH]c3O)=C1)[C@H](C)C[C@]2(C)O", "dose": "10 µM", "value": "0%"}
{"smiles": "C#CC[C@H](NC(=O)COc1cccc2ccccc12)C(=O)N[C@@H](Cc1ccccc1)[C@H](O)C(=O)N1CSC[C@H]1C(=O)NC(C)(C)C", "dose": "0.05 µM", "value": "74%"}
{"smiles": "Cn1ccc2c(C(=O)N[C@@H](CSc3ccc4ccccc4c3)[C@H](O)Cc3ccccc3C(=O)NC(C)(C)C)cccc21", "method": "fluorescence", "dose": "15 µg/mL", "value": "35%"}
{"smiles": "CCCC(CCC)C(=O)N1C[C@@H](O)[C@@H](Cc2ccccc2)N(Cc2ccc(O)cc2)C(=O)N1Cc1ccc(O)cc1", "method": "fluorescence", "dose": "0.0005 µM", "value": "43%"}
{"smiles": "CC(C)COC(=O)[C@H](Cc1ccc([N+](=O)[O-])cc1)NC(=O)C(=O)N[C@@H](Cc1ccc([N+](=O)[O-])cc1)C(=O)OCC(C)C", "method": "absorbance", "dose": "10 µM", "value": "49%"}
{"smiles": "CC(C)C[C@H](NC(=O)[C@@H](NC(=O)[C@@H](N)CC(C)C)[C@@H](C)O)C(=O)N[C@@H](CC(N)=O)C(=O)N[C@@H](Cc1ccccc1)C(=O)O", "method": "HPLC", "dose": "400 µg/mL", "value": "14%"}
{"smiles": "N=S(=O)(C[C@@H](Cc1ccccc1)C(=O)NC(CO)c1ccccc1)C[C@@H](Cc1ccccc1)C(=O)N[C@H](CO)c1ccccc1", "dose": "10 µM", "value": "87%"}
{"smiles": "CCC(C)C(NC(=O)C1CCCN1C(=O)CC(=O)N1CCCC1C(=O)NC(C(=O)NC(C(=O)OC)C(C)C)C(C)CC)C(=O)NC(C(=O)OC)C(C)C", "method": "absorbance", "dose": "10 µM", "value": "<10%"}
{"smiles": "CC(C)C[C@H](CO)NC(=O)[C@@H]1O[C@@H]2CN(Cc3ccccc3)C(=O)[C@H]1O2", "method": "FRET", "dose": "10 µM", "value": "0%"}
{"smiles": "COC(=O)N1C2C3(CO)C(c4ccccc4)C4(CO)C1C1(CO)C(c5ccccc5)C2(CO)C3N(C(=O)OC)C41", "dose": "50 µM", "value": "9%"}
{"smiles": "CNC(=O)[C@@H](NC(=O)[C@H](Cc1ccccc1)CS(=O)C[C@@H](Cc1ccccc1)C(=O)N[C@H](C(=O)NC)C(C)C)C(C)C", "dose": "10 µM", "value": "90%"}
{"smiles": "CC(=O)N1C2C3(CO)C(c4ccccc4)C4(CO)C1C1(CO)C(c5ccccc5)C2(CO)C3N(C(C)=O)C41", "dose": "50 µM", "value": "6%"}
{"smiles": "CC(C)C[C@H](NC(=O)[C@H](CC(=O)O)NC(=O)CCCCCCCCCCCCCCC(=O)N[C@@H](CC(N)=O)C(=O)N[C@@H](Cc1ccccc1)C(=O)O)C(=O)N[C@@H](Cc1ccccc1)C(N)=O", "dose": "5.5 µM", "value": "20%"}
{"smiles": "CC(C)C[C@@H](C=O)NC(=O)[C@H](CC(C)C)NC(=O)[C@H](CC(C)C)NC(=O)OCc1ccccc1", "dose": "100 µM", "value": "0%"}
{"smiles": "CC[C@H](C)[C@H](NC(=O)[C@H](CCC(N)=O)NC(=O)[C@@H]1CCCN1C(C)=O)C(=O)N[C@H](C(=O)N[C@@H](CC(C)C)C(=O)O)[C@@H](C)O", "method": "HPLC", "dose": "266 µg/mL", "value": "3%"}
{"smiles": "CC(C)Oc1cccc(OCC(=O)N[C@@H](CC(N)=O)C(=O)N[C@@H](Cc2ccccc2)[C@H](O)C(=O)N2CSC(C)(C)[C@H]2C(=O)NC(C)(C)C)c1", "dose": "0.05 µM", "value": "98.6%"}
{"smiles": "O=C(O)[C@@H]1O[C@@H](Oc2cc3oc(-c4ccccc4)cc(=O)c3c(O)c2O)[C@@H](O)[C@H](O)[C@H]1O", "method": "substrate cleavage / fluorescence", "dose": "1000 µg/mL", "value": "53.5%"}
{"smiles": "CC(=O)N[C@H](C(=O)N[C@@H](CC(C)C)C(=O)N[C@@H](CC(N)=O)C(=O)N[C@@H](Cc1ccccc1)C(N)=O)[C@@H](C)O", "method": "HPLC", "dose": "800 µg/mL", "value": "29%"}
{"smiles": "CC(C)COC(=O)[C@H](Cc1ccc(O)cc1)NC(=O)C(=O)N[C@@H](Cc1ccc(O)cc1)C(=O)OCC(C)C", "method": "absorbance", "dose": "10 µM", "value": "27%"}
{"smiles": "CC[C@@H](C)[C@H](NC(=O)[C@@H]1CCCN1C(=O)[C@@H](O)[C@H](CC1CCCCC1)NC(=O)[C@H](CC(N)=O)NC(=O)[C@@H]1Cc2ccccc2N1)C(=O)N[C@H](C(N)=O)C(C)C", "dose": "5 µM", "value": "94.5%"}
{"smiles": "CC[C@H](C)C(NC(=O)CNCC(O)[C@H](Cc1ccccc1)NC(=O)OCc1ccccc1)C(=O)N[C@@H](Cc1ccccc1)C(=O)OC", "dose": "10 µM", "value": "14%"}
{"smiles": "CS(=O)(=O)C[C@H](NC(=O)COc1cccc2ccccc12)C(=O)N[C@@H](Cc1ccccc1)[C@H](O)C(=O)N1CSC[C@H]1C(=O)NCCCC(N)=O", "dose": "0.05 µM", "value": "35%"}
{"smiles": "Cc1ccccc1CNC(=O)[C@H]1N(C(=O)[C@@H](O)[C@H](Cc2ccccc2)NS(=O)(=O)c2ccc(Br)s2)CSC1(C)C", "strain or isolate": "NL4-3", "method": "fluorescence", "dose": "0.064 µM", "value": "16%"}
{"smiles": "CNC(=O)[C@@H](NC(=O)[C@@H](CSC[C@@H](Cc1ccccc1)C(=O)N[C@H](C(=O)NC)C(C)C)Cc1ccccc1)C(C)C", "dose": "10 µM", "value": "87%"}
{"smiles": "COC(=O)N1C2C3(CO)C(c4ccc(OC)cc4)C4(CO)C1C1(CO)C(c5ccc(OC)cc5)C2(CO)C3N(C(=O)OC)C41", "dose": "50 µM", "value": "9%"}
{"smiles": "CC[C@H](C)[C@H](NC(=O)C[C@H](O)[C@H](Cc1ccccc1)NC(=O)OC(C)(C)C)C(=O)N[C@@H](Cc1ccccc1)C(=O)OC", "dose": "10 µM", "value": "71%"}
{"smiles": "O=c1c(O[C@@H]2O[C@H](CO)[C@H](O)[C@H](O)[C@H]2O)c(-c2ccc(O)c(O)c2)oc2cc(O)cc(O)c12", "method": "HPLC", "dose": "100 µM", "value": "20.9%"}
{"smiles": "CC(C)COC(=O)[C@H](Cc1c[nH]c2ccccc12)NC(=O)C(=O)N[C@@H](Cc1c[nH]c2ccccc12)C(=O)OCC(C)C", "method": "absorbance", "dose": "10 µM", "value": "<10%"}
{"smiles": "CC(C)(C)OC(=O)N1C2C3(CO)C(c4ccccc4)C4(CO)C1C1(CO)C(c5ccccc5)C2(CO)C3N(C(=O)OC(C)(C)C)C41", "dose": "25 µM", "value": "49%"}